# From PubChem BioAssay AID624416 (The Scripps Research Institute Molecular Screening Center, 2012)
# The list shows a part of the results, in another mix than the full data. Activity calls are given as the source filed them. Cut-off read from the data, not from the text of the source: active = inhibition above about 8.5%; inactive = the rest.
# System: HIV-1 gp120 / PG9 antibody interaction
# Assay: binders of HIV-1 gp120 antibody PG9, primary screen, biochemical, TR-FRET (AID 624416)
# Conditions: TR-FRET gp120-PG9 antibody binding; at 6.7 µM; hits give high values
row,SMILES,inhibition
1,CCCCn1nnnc1C(c1ccnc2ccccc12)N1CCC(n2c(=O)[nH]c3ccccc32)CC1 (stereo not drawn),inactive: -0.21%
2,CCC(c1nnnn1C(C)(C)C)N1CCC(n2c(=O)[nH]c3ccccc32)CC1 (stereo not drawn),inactive: 0.92%
3,O=C(NCC1(N2CCOCC2)CCCCC1)c1cc(F)c(F)cc1Cl,inactive: 0.37%
4,COc1cc(OC)c(C(=O)NCC2(N(C)C)CCCCC2)cc1OC,inactive: -0.83%
5,CN(C)c1cccc(C(=O)NCC2(N3CCCCC3)CCCCC2)c1,inactive: 0.18%
6,COc1ccc(CN(CCCl)CCCl)cc1Cl,inactive: -0.48%
7,CC(C)c1ccc(NC2CCN(C(=O)OC(C)(C)C)CC2)cc1,inactive: 0.05%
8,CCCOc1ccc(C(=O)NCC2(N(C)C)CCCCC2)cc1OC,inactive: -1.92%
9,Cc1ccc(C(=O)NCC2(N(C)C)CCCCC2)o1,inactive: -0.43%
10,COc1ccc(C(c2nnnn2C2CCCC2)N2CCC(n3c(=O)[nH]c4ccccc43)CC2)cc1 (stereo not drawn),inactive: 1.28%
11,O=C(NCC1(N2CCCCC2)CCCCC1)c1cncc(Br)c1,inactive: 0.2%
12,CN1CCC(Nc2cccc(F)c2)CC1,inactive: 0.92%
13,CSc1ccc(C(=O)NCC2(N3CCOCC3)CCCCC2)cc1,inactive: -3.47%
14,O=C(NCC1(N2CCCCC2)CCCCC1)c1cccc([N+](=O)[O-])c1,inactive: -1%
15,N#CC1(Nc2ccccc2)CCN(CCc2ccccc2)CC1,inactive: -0.56%
16,O=c1[nH]c2ccccc2n1C1CCN(C(c2ccccc2OC(F)(F)F)c2nnnn2C2CCCC2)CC1 (stereo not drawn),inactive: -0.37%
17,CCN1CCC(Nc2ccc(Cl)cc2)CC1,inactive: -0.99%
18,O=C(NCC1(N2CCCCC2)CCCCC1)c1ccc(OC(F)F)cc1,inactive: -1.08%
19,CC(C)(C)n1nnnc1C(c1ccccc1OC(F)(F)F)N1CCC(n2c(=O)[nH]c3ccccc32)CC1 (stereo not drawn),inactive: 0.13%
20,CCCCn1nnnc1C(c1cccc2ccccc12)N1CCC(n2c(=O)[nH]c3ccccc32)CC1 (stereo not drawn),inactive: -0.15%
21,CN1CCN(CCOC(=O)C(O)(c2ccccc2)c2ccccc2)CC1,inactive: -0.73%
22,CC(C)c1ccc(C(=O)NCC2(N3CCOCC3)CCCCC2)cc1,inactive: 0.96%

row,SMILES,inhibition
1,COc1ccc(NC2CCN(C(=O)OC(C)(C)C)CC2)cc1,inactive: 0.06%
2,COc1cc(C(=O)NCC2(N3CCCCC3)CCCCC2)ccc1OC(F)F,inactive: -1.15%
3,O=C(NCC1(N2CCOCC2)CCCCC1)c1cc(=O)[nH]c2ccccc12,inactive: 0.17%
4,O=C(NCC1(N2CCCCC2)CCCCC1)c1cccc(C(F)(F)F)c1,inactive: 0.71%
5,COc1ccc(NC2CCN(CCc3ccccc3)CC2)c(OC)c1,inactive: -3.42%
6,CCOC(=O)N1CCC(Nc2ccc(F)cc2)CC1,inactive: -2.58%
7,O=C(NCC1(N2CCCCC2)CCCCC1)c1ccc(F)cc1,inactive: -1.69%
8,O=P1(N(CCCl)CCCl)SCCCS1,inactive: -0.26%
9,CCCCn1nnnc1C(c1cc2ccccc2o1)N1CCC(n2c(=O)[nH]c3ccccc32)CC1 (stereo not drawn),inactive: 0.16%
10,CCCCOc1ccc(C(=O)NCC2(N3CCOCC3)CCCCC2)cc1,inactive: 0.26%
11,CCOc1ccc(C)cc1CN(CCCl)CCCl,inactive: -0.88%
12,O=C1CCN(Cc2ccccc2)CC1,inactive: -1.03%
13,CC(C)(C)n1nnnc1C(c1ccccc1)N1CCC(n2c(=O)[nH]c3ccccc32)CC1 (stereo not drawn),inactive: -0.08%
14,O=c1[nH]c2ccccc2n1C1CCN(C(c2cccc3ccccc23)c2nnnn2C2CCCC2)CC1 (stereo not drawn),inactive: -0.38%
15,COc1cc(C(=O)NCC2(N(C)C)CCCCC2)ccc1OC(F)F,inactive: -0.73%
16,CCOC(=O)N1CCC(Nc2cccc(C)c2)CC1,inactive: -2.06%
17,O=c1[nH]c2ccccc2n1C1CCN(C(c2ccccc2)c2nnnn2C2CCCCC2)CC1 (stereo not drawn),inactive: 0.13%
18,Cc1cccc(NC2(C#N)CCN(Cc3ccccc3)CC2)c1,inactive: 2.07%
19,CSc1ccccc1C(=O)NCC1(N2CCCCC2)CCCCC1,inactive: -2.55%
20,CCCCn1nnnc1C(c1cccs1)N1CCC(n2c(=O)[nH]c3ccccc32)CC1 (stereo not drawn),inactive: -1.85%
21,O=C(NCC1(N2CCCCC2)CCCCC1)c1cccs1,inactive: 0.75%
22,CCCCn1nnnc1C(CC)N1CCC(n2c(=O)[nH]c3ccccc32)CC1 (stereo not drawn),inactive: 0.48%

row,SMILES,inhibition
1,O=C(NCC1(N2CCCCC2)CCCCC1)c1ccc(=O)[nH]c1,inactive: -2.05%
2,CCC(c1nnnn1C1CCCC1)N1CCC(n2c(=O)[nH]c3ccccc32)CC1 (stereo not drawn),inactive: 1.06%
3,CC(C)(C)OC(=O)N1CCC(N(C(=O)c2ccccc2)c2ccc(F)cc2)CC1,inactive: 0.15%
4,COc1ccc(C(=O)NCC2(N3CCCCC3)CCCCC2)c(OC)c1OC,inactive: 1.54%
5,COc1ccc(C(=O)NCC2(N3CCCCC3)CCCCC2)cc1,inactive: 0.48%
6,CCCCn1nnnc1C(c1ccc(OC)cc1)N1CCC(n2c(=O)[nH]c3ccccc32)CC1 (stereo not drawn),inactive: -0.31%
7,CCOC(=O)N1CCC(Nc2ccc(OC)cc2)CC1,inactive: -2.36%
8,COc1ccc(Cl)cc1C(=O)NCC1(N2CCOCC2)CCCCC1,inactive: -3.13%
9,O=C(OC1CN2CCC1CC2)C1c2ccccc2Oc2ccccc21 (stereo not drawn),inactive: -0.68%
10,O=c1[nH]c2ccccc2n1C1CCN(C(c2cc3ccccc3o2)c2nnnn2C2CCCCC2)CC1 (stereo not drawn),inactive: 1.74%
11,N#CC1(Nc2ccccc2)CCN(Cc2ccccc2)CC1,inactive: -0.76%
12,O=C(NCC1(N2CCCCC2)CCCCC1)c1ccc(Cl)s1,inactive: 1.67%
13,O=C(NCC1(N2CCOCC2)CCCCC1)c1cc2ccccc2o1,inactive: 1.09%
14,Cc1cc(C)cc(N(C(=O)c2ccccc2)C2CCN(C(=O)OC(C)(C)C)CC2)c1,inactive: -1.41%
15,O=c1[nH]c2ccccc2n1C1CCN(C(c2ccccc2OC(F)(F)F)c2nnnn2C2CCCCC2)CC1 (stereo not drawn),inactive: 0.84%
16,O=C(NCC1(N2CCCCC2)CCCCC1)c1ccc(Cl)nc1,inactive: 0.98%
17,CCCOc1ccc(C(=O)NCC2(N(C)C)CCCCC2)cc1,inactive: 1.1%
18,O=c1[nH]c2ccccc2n1C1CCN(C(c2cc3ccccc3o2)c2nnnn2C2CCCC2)CC1 (stereo not drawn),inactive: -1.15%
19,O=C(O)C1(Nc2ccccc2)CCN(Cc2ccccc2)CC1,inactive: -0.05%
20,NN(c1ccccc1)C1CCN(CCc2ccccc2)CC1,inactive: 0%
21,CC(C)(C)OC(=O)N1CCC(Nc2ccccc2)CC1,inactive: 1.52%
22,CN1CCC(Nc2ccc(F)c(Cl)c2)CC1,inactive: -0.11%

row,SMILES,inhibition
1,CCOc1ncccc1C(=O)NCC1(N2CCOCC2)CCCCC1,inactive: 1.34%
2,CN1CCC(Nc2ccc(Cl)cc2)CC1,inactive: -2.9%
3,CCC(CO)(C(=O)OC1CN2CCC1CC2)c1ccccc1 (stereo not drawn),inactive: -0.65%
4,COc1cccc(C(c2nnnn2C2CCCC2)N2CCC(n3c(=O)[nH]c4ccccc43)CC2)c1OC (stereo not drawn),inactive: -0.72%
5,COc1cc(OC)cc(C(=O)NCC2(N3CCOCC3)CCCCC2)c1,inactive: -1.96%
6,COc1cccc(C(=O)N(c2cc(C)cc(C)c2)C2CCN(C(=O)OC(C)(C)C)CC2)c1,inactive: -0.04%
7,Cc1ccc(NC2(C#N)CCN(Cc3ccccc3)CC2)cc1,inactive: -3.25%
8,Fc1ccccc1NC1CCN(Cc2ccccc2)CC1,inactive: -1.65%
9,Cc1ccc(C(=O)NCC2(N3CCCCC3)CCCCC2)o1,inactive: -0.98%
10,O=c1[nH]c2ccccc2n1C1CCN(C(c2ccnc3ccccc23)c2nnnn2C2CCCCC2)CC1 (stereo not drawn),inactive: -1.02%
11,COc1cc(OC)cc(C(=O)NCC2(N3CCCCC3)CCCCC2)c1,inactive: -0.16%
12,CCC(c1nnnn1C1CCCCC1)N1CCC(n2c(=O)[nH]c3ccccc32)CC1 (stereo not drawn),inactive: -1.33%
13,CC(=O)N(c1ccccc1)C1CCNCC1,inactive: 0.36%
14,COc1cccc(C(c2nnnn2C2CCCCC2)N2CCC(n3c(=O)[nH]c4ccccc43)CC2)c1OC (stereo not drawn),inactive: 1.3%
15,Cn1c(=O)[nH]cc(N(CCCl)CCCl)c1=O,inactive: -1.69%
16,CN(C)c1ccc(C(=O)NCC2(N3CCCCC3)CCCCC2)cc1,inactive: -0.61%
17,O=C(NCC1(N2CCCCC2)CCCCC1)c1ccco1,inactive: -0.71%
18,CC(C)(C)n1nnnc1C(c1ccnc2ccccc12)N1CCC(n2c(=O)[nH]c3ccccc32)CC1 (stereo not drawn),inactive: -0.31%
19,CCN1CCC(Nc2cccc(F)c2)CC1,inactive: -3.3%
20,COc1ccc(C(c2nnnn2C2CCCCC2)N2CCC(n3c(=O)[nH]c4ccccc43)CC2)cc1 (stereo not drawn),inactive: 1.01%
21,Cc1ccccc1NC1(C#N)CCN(Cc2ccccc2)CC1,inactive: 0.16%
22,CC(C)(C)OC(=O)N1CCC(N(C(=O)c2ccccc2)c2ccc(Cl)cc2)CC1,inactive: -2.59%

row,SMILES,inhibition
1,N#Cc1ccc(C(=O)NCC2(N3CCCCC3)CCCCC2)cc1,inactive: 1.38%
2,CC(C)(C)n1nnnc1C(c1cccc2ccccc12)N1CCC(n2c(=O)[nH]c3ccccc32)CC1 (stereo not drawn),inactive: 0.18%
3,Cc1cc(N(CCCl)CCCl)ccc1C=O,inactive: 0.24%
4,O=c1[nH]c2ccccc2n1C1CCN(C(c2ccccc2)c2nnnn2C2CCCC2)CC1 (stereo not drawn),inactive: -1.4%
5,CCCN1CCC(Nc2cc(OC)cc(OC)c2)CC1,inactive: -1.79%
6,c1ccc(CN2CCC(Nc3ccccc3)CC2)cc1,inactive: 0.61%
7,C/C(N)=N\P(=O)(Oc1ccccc1)Oc1ccccc1,inactive: 0.04%
8,CN(C)C1(CNC(=O)c2cccc(C#N)c2)CCCCC1,inactive: -1.63%
9,O=c1[nH]c2ccccc2n1C1CCN(C(c2ccnc3ccccc23)c2nnnn2C2CCCC2)CC1 (stereo not drawn),inactive: 1.24%
10,COc1ccc(C(=O)NCC2(N3CCOCC3)CCCCC2)cc1OC,inactive: 1.21%
11,O=c1[nH]c2ccccc2n1C1CCN(C(c2cccs2)c2nnnn2C2CCCCC2)CC1 (stereo not drawn),inactive: 1.04%
12,O=C(NCC1(N2CCOCC2)CCCCC1)c1cc(Br)ccc1Cl,inactive: 1.32%
13,COc1cc(C(=O)NCC2(N3CCOCC3)CCCCC2)cc(OC)c1C,inactive: -0.66%
14,CCCCn1nnnc1C(c1ccccc1)N1CCC(n2c(=O)[nH]c3ccccc32)CC1 (stereo not drawn),inactive: -0.21%
15,CCCCn1nnnc1C(c1cccc(OC)c1OC)N1CCC(n2c(=O)[nH]c3ccccc32)CC1 (stereo not drawn),inactive: 0.37%
16,O=c1[nH]c2ccccc2n1C1CCN(C(c2cccs2)c2nnnn2C2CCCC2)CC1 (stereo not drawn),inactive: -0.55%
17,O=C(OC1CN2CCC1CC2)C1c2ccccc2C=Cc2ccccc21 (stereo not drawn),inactive: 1.09%
18,N/C(=N\O)c1c(N)no[n+]1[O-],inactive: 1.67%
19,COc1cccc(C(c2nnnn2C(C)(C)C)N2CCC(n3c(=O)[nH]c4ccccc43)CC2)c1OC (stereo not drawn),inactive: 0.54%
20,CCOC(=O)N1CCC(Nc2ccc(C)cc2)CC1,inactive: 0.08%
